Our source for the colony color values is patent publication US12618095B2, “Medium for Bacillus cereus group detection” (SHIMADZU DIAGNOSTICS CORPORATION, priority 2020, dated 2026).

In data set [1] the test system is E. amnigenus. The data set can be described thus: Test Example 10: agar medium with aztreonam or ceftazidime. The conditions noted are these: ATCC33072, 22 hours.
Data set [2] has as its system B. thuringiensis. The data set can be described thus: Test Example 9: concentration of amphotericin B. The conditions noted are these: NBRC101235. In kind it is cell-based.

Each structure is given as a SMILES string.

With `CC(C)(O/N=C(\C(=O)N[C@@H]1C(=O)N2C(C(=O)[O-])=C(C[n+]3ccccc3)CS[C@H]12)c1csc(N)n1)C(=O)O` [ceftazidime], the colony color result in data set [1] (Ceftazidime 0.05 mg, 10^3 cfu/mL) is reported as “(White)”; in data set [1] (Ceftazidime 0.05 mg, 10^4 cfu/mL), “(White)”; in data set [1] (Ceftazidime 0.05 mg, 10^5 cfu/mL), “(White)”.

Take `C[C@H]1[C@H](NC(=O)/C(=N\OC(C)(C)C(=O)O)c2csc(N)n2)C(=O)N1S(=O)(=O)O` [aztreonam]: the colony color result in data set [1] (Aztreonam 0.05 mg, 10^5 cfu/mL) is recorded as “(White)”.

For `C[C@@H]1[C@H](O)[C@@H](C)/C=C/C=C/C=C/C=C/C=C/C=C/C=C/[C@H](O[C@@H]2O[C@H](C)[C@@H](O)[C@H](N)[C@@H]2O)C[C@@H]2O[C@](O)(C[C@@H](O)C[C@@H](O)[C@H](O)CC[C@@H](O)C[C@@H](O)CC(=O)O[C@H]1C)C[C@H](O)[C@H]2C(=O)O` [Amphotericin B], the colony color entry in data set [2] (Amphotericin B 0.1 mg, 24 hours, 10^2 cfu/mL) is given as “(Blue)”; in data set [2] (Amphotericin B 0.1 mg, 24 hours, 10^3 cfu/mL), “(Blue)”; in data set [2] (Amphotericin B 0.1 mg, 24 hours, 10^4 cfu/mL), “(Blue)”; in data set [2] (Amphotericin B 0.1 mg, 24 hours, 10^5 cfu/mL), “(Blue)”; in data set [2] (Amphotericin B 0.1 mg, 44 hours, 10^2 cfu/mL), “(Blue)”; in data set [2] (Amphotericin B 0.1 mg, 44 hours, 10^3 cfu/mL), “(Blue)”. Besides, the colony color result in data set [2] (Amphotericin B 0.1 mg, 44 hours, 10^4 cfu/mL) is recorded as “(Blue)”; in data set [2] (Amphotericin B 0.1 mg, 44 hours, 10^5 cfu/mL), “(Blue)”; in data set [2] (Amphotericin B 1.0 mg, 24 hours, 10^2 cfu/mL), “(Blue)”; in data set [2] (Amphotericin B 1.0 mg, 24 hours, 10^3 cfu/mL), “(Blue)”; in data set [2] (Amphotericin B 1.0 mg, 24 hours, 10^4 cfu/mL), “(Blue)”; in data set [2] (Amphotericin B 1.0 mg, 24 hours, 10^5 cfu/mL) it was “(Blue)”. Besides, the colony color entry is “(Blue)” in data set [2] (Amphotericin B 1.0 mg, 44 hours, 10^2 cfu/mL); “(Blue)” in data set [2] (Amphotericin B 1.0 mg, 44 hours, 10^3 cfu/mL); “(Blue)” in data set [2] (Amphotericin B 1.0 mg, 44 hours, 10^4 cfu/mL); “(Blue)” in data set [2] (Amphotericin B 1.0 mg, 44 hours, 10^5 cfu/mL); “(Blue)” in data set [2] (Amphotericin B 10 mg, 24 hours, 10^2 cfu/mL); “(Blue)” in data set [2] (Amphotericin B 10 mg, 24 hours, 10^3 cfu/mL). Besides, the colony color entry in data set [2] (Amphotericin B 10 mg, 24 hours, 10^4 cfu/mL) is on record as “(Blue)”; in data set [2] (Amphotericin B 10 mg, 24 hours, 10^5 cfu/mL), “(Blue)”; in data set [2] (Amphotericin B 10 mg, 44 hours, 10^2 cfu/mL), “(Blue)”; in data set [2] (Amphotericin B 10 mg, 44 hours, 10^3 cfu/mL), “(Blue)”; in data set [2] (Amphotericin B 10 mg, 44 hours, 10^4 cfu/mL), “(Blue)”; in data set [2] (Amphotericin B 10 mg, 44 hours, 10^5 cfu/mL) it was “(Blue)”.
